Assay results reported in paper PMC3795040, “Structure of a Bimodular Botulinum Neurotoxin Complex Provides Insights into Its Oral Toxicity” (2013).

Key:
[1] = molecular target: HA17 of BoNT/A (full-length, residues M1–I146) (Clostridium botulinum strain 62A (BoNT/A1-producing))
[2] = molecular target: HA70 of BoNT/A (full-length, residues M1–N626) (Clostridium botulinum strain 62A (BoNT/A1-producing))
[3] = molecular target: HA70^D3 (D3 domain of HA70, residues P378–N626) (Clostridium botulinum strain 62A (BoNT/A1-producing))

Substance | stoichiometry N (HA33 per HA17) [1] | stoichiometry N (HA17 per HA70) [2] | stoichiometry N (HA17 per HA70^D3) [3]
HA33 of BoNT/A (full-length, residues M1–P293) (from UniProt Q45871 1-293) | 2 |  | 
HA17 of BoNT/A (full-length, residues M1–I146) |  | 1 | 1
